Data published in PMC8092326.

Biological target: RBD-mimic2 peptide (SARS-CoV-2 spike RBD) (Severe acute respiratory syndrome coronavirus 2)
Experiment: SPR

ACE2 (from UniProt Q9BYF1)
Kd: 347 nM
